The text below walks through data of publication PMC12299546.

By UniProt entry, the sequences of proteins in these tests, tags left out. Where a name states a change or a piece, a line headed by the entry shows the natural chain unless it says otherwise.
UniProt P0A1R6: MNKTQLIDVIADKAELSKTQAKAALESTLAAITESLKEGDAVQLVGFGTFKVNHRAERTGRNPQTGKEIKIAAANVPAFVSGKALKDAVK

For at least one entry, the source does not settle the construct or the ends of the probe.

This data set addresses SeHUα2 (HUα homodimer, unacetylated + pre-incubated with SeNatB without AcCoA) (Salmonella enterica Typhimurium) (UniProt P0A1R6). The experiment in a line: EMSA. The settings on record: 5-, 10-, 15-fold molar excess of HU, bound over 4, 5 and 3 times more than acetylated, 10 mM Tris-HCl pH 7.6, 15 mM NaCl, 15% glycerol, 0.1 mM EDTA, recombinant protein, label: 5' 6-FAM on one strand (hilA_R1_FAM primer), probe letters rebuilt from the primers and the genome. (In general: In EMSA bound probe runs differently from free probe, usually more slowly.)

For the sequence “TAAAATGTGGCATGATAATAGTGTATTCTCTTACAGGGTGAAAAGTTATAATAACTAATACAAGTCGTTAGGATAGAATCTACTGTTTCAGTAATTCTGCTGTTAGTACTAACGGTCAGGTTGAGCTTTTATTATGAGCTTAATGTCATATTCTACGGGCTCGGGTTTATATGTTTTTAACATTTGATTATTTAGCTTATGCCTGTGCTTTAAATAACTGACATGTTGGTAATAATATTGTTATAACTAACTGTGATTATCGAATGGACGCTGCCGTATATCCTGGTGCAGAGAGAGTCAGCGCCGGGCATCTAAATATTTACATATTTAACTTGGCCTCATTGCAATAG (double strand) [hilA promoter probe]”, the binding result is reported as “binds”.
